Experimental data: PubChem BioAssay AID1224833 (University of Georgia, 2016)
In all, the deposit lists about 12,000 reagents; below is a random part of them. About 5,600 of them (46%) were called active. 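Active calls cover z-scores past 1 in both directions, so they include lowered as well as raised rotavirus replication.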

Screen: 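Human genes whose knock-down alters rotavirus replication in monkey cells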 (primary screen)
Cell system: monkey MA104 kidney cells
Reagent: siRNA pool against human genes, 50 nM
Timing: 48 h knock-down before infection; read 24 h after infection
Challenge: infection with rotavirus strain RV3 two days after transfection; infectious dose for this stage not given
Detection: 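z-score of rotavirus antigen signal per well, from a fluorescent immunoassay, relative to non-targeting control wells on the same plate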
Direction: z-score vs non-targeting control: higher = more rotavirus replication than with non-targeting control
Active means: In these data the active calls have z-score vs non-targeting control at about -1 or lower, or at about 1 or higher
Meaning of the calls: active = z-score beyond 1 either way; inactive = z-score within 1 of zero

For HMMR (GeneID 3161), what was measured?
z-score vs non-targeting control: 2.55; Call: active

For GPA33 (GeneID 10223), what does the deposit list?
z-score vs non-targeting control: 3.32; Call: active

What did the screen give for WDR46 (GeneID 9277)?
z-score vs non-targeting control: -0.954; Call: inactive

Which result is listed for TEKTIP1 (GeneID 100128569)?
z-score vs non-targeting control: 0.344; Call: inactive

With GRPR (GeneID 2925), what was measured?
z-score vs non-targeting control: 3.28; Call: active

How did the screen score IGSF6 (GeneID 10261)?
z-score vs non-targeting control: -0.269; Call: inactive

What did the screen give for ANKRD22 (GeneID 118932)?
z-score vs non-targeting control: -2.24; Call: active

What is on record for CDC42EP3 (GeneID 10602)?
z-score vs non-targeting control: -4.27; Call: active

Which result is listed for CCDC102A (GeneID 92922)?
z-score vs non-targeting control: -2.14; Call: active

How did the screen score GMPS (GeneID 8833)?
z-score vs non-targeting control: -2.16; Call: active

With DELEC1 (GeneID 50514), how do the results read?
z-score vs non-targeting control: -1.05; Call: active

Which result is listed for PHLDB2 (GeneID 90102)?
z-score vs non-targeting control: -0.526; Call: inactive

How did the screen score TXLNB (GeneID 167838)?
z-score vs non-targeting control: 1.53; Call: active

How did the screen score ZMYND19 (GeneID 116225)?
z-score vs non-targeting control: 1.07; Call: active

For RPS29 (GeneID 6235), what was measured?
z-score vs non-targeting control: -0.48; Call: inactive

What is on record for FBN2 (GeneID 2201)?
z-score vs non-targeting control: 0.432; Call: inactive

For ADGRG2 (GeneID 10149), how do the results read?
z-score vs non-targeting control: -1.43; Call: active

For MAB21L1 (GeneID 4081), what was measured?
z-score vs non-targeting control: -0.205; Call: inactive

For EAF1 (GeneID 85403), what was measured?
z-score vs non-targeting control: -0.944; Call: inactive
